Reference: patent US20220105150A1, “AMPHIPATHIC ALPHA-HELICAL ANTIMICROBIAL PEPTIDES TREAT INFECTIONS BY GRAM-NEGATIVE PATHOGENS” (priority 2019, published 2022)

System: Acinetobacter baumannii versus human red blood cells
Test: Therapeutic index (HC50/MICGM)
Conditions: for T.I.: HC50 (μM)/MICGM (μM), seven A. baumannii strains; for T.I. Fold Decrease: same peptide with and without specificity determinants

CC(=O)N[C@H](CCCCN)C(=O)N[C@H](CC(C)C)C(=O)N[C@H](CCN)C(=O)N[C@H](CO)C(=O)N[C@H](CC(C)C)C(=O)N[C@H](CC(C)C)C(=O)N[C@H](CCN)C(=O)N[C@@H](C(=O)N[C@H](CC(C)C)C(=O)N[C@H](CO)C(=O)N[C@H](CCN)C(=O)N[C@H](C)C(=O)N[C@H](C)C(=O)N[C@H](C)C(=O)N[C@H](C)C(=O)N[C@H](C)C(=O)N[C@H](CC(C)C)C(=O)N[C@H](CCN)C(=O)N[C@@H](C(=O)N[C@H](CC(C)C)C(=O)N[C@H](CC(C)C)C(=O)N[C@H](CCN)C(=O)N[C@H](C)C(=O)N[C@H](CC(C)C)C(=O)N[C@H](CO)C(=O)N[C@H](CCN)C(N)=O)[C@H](C)O)[C@H](C)O [D86(K13A/K16A)-(Lys^1-6Dab-1), Ac-KL(Dab)SLL(Dab)TLS(Dab)AAAAAL(Dab)TLL(Dab)ALS(Dab)-amide]
T.I.: 8.6 | T.I. Fold Decrease: >−86.3

CC(=O)N[C@H](CCCCN)C(=O)N[C@H](CC(C)C)C(=O)N[C@H](CN)C(=O)N[C@H](CO)C(=O)N[C@H](CC(C)C)C(=O)N[C@H](CC(C)C)C(=O)N[C@H](CN)C(=O)N[C@@H](C(=O)N[C@H](CC(C)C)C(=O)N[C@H](CO)C(=O)N[C@H](CN)C(=O)N[C@H](C)C(=O)N[C@H](C)C(=O)N[C@H](C)C(=O)N[C@H](C)C(=O)N[C@H](C)C(=O)N[C@H](CC(C)C)C(=O)N[C@H](CN)C(=O)N[C@@H](C(=O)N[C@H](CC(C)C)C(=O)N[C@H](CC(C)C)C(=O)N[C@H](CN)C(=O)N[C@H](C)C(=O)N[C@H](CC(C)C)C(=O)N[C@H](CO)C(=O)N[C@H](CN)C(N)=O)[C@H](C)O)[C@H](C)O [D105(K13A/K16A)-(Lys^1-6Dap-1), Ac-KL(Dap)SLL(Dap)TLS(Dap)AAAAAL(Dap)TLL(Dap)ALS(Dap)-amide]
T.I.: 2.2 | T.I. Fold Decrease: >−435.0
